# Measured values from article PMC12592502, “Unraveling the mechanisms behind the enhanced efficacy of β-lactam-based sideromycins” (Communications Biology, 2025).
# Tested on: E. coli MC4100
# Test: Antibiotic uptake assay (UPLC-MS of culture supernatant)
# Assay type: cell-based, Escherichia coli
# Conditions: 4-h time point, MHBCA, initial 200 μM
compound,measurement,value
"N[C@@H](C(=O)N[C@@H]1C(=O)N2C(C(=O)O)=C(Cl)CC[C@H]12)c1ccccc1 [LOR, loracarbef, reference compound]",drug disappeared from the supernatant,over 194 μM
